Results of unrelated studies side by side (data: NIAID ChemDB).

Shared fields: tests in culture; agent: Mycobacterium tuberculosis

MIC bound: limit read from a one-dose screen.

compound,strain,endpoint,conditions,tested at,read by,mutations,value
O=C(N/N=C/c1ccc(C23CC4CC(CC(C4)C2)C3)cc1)c1ccncc1,H37Rv,MIC,-,-,luminescence,-,0.1 µg/mL
COc1nc2ccc(Br)cc2cc1C(c1ccccc1)C(O)(CCN1CCCCC1)c1ccc2cc(Br)ccc2c1,H37Rv,MIC90,-,-,-,-,67.45 µg/mL
CC(C)COc1ccc(NC(=S)Nc2ccc(OCC(C)C)cc2)cc1,H37Ra,MIC,-,-,-,-,0.5 µg/mL
Cc1ccc2occ(/C=N/NC(=O)c3cc(O)c(O)c(O)c3)c(=O)c2c1,H37Rv,MIC,-,-,-,-,>100 µg/mL
CCCOc1ccc(NC(=S)Nc2ccc(OCCC)cc2)cc1,H37Ra,MIC,-,-,-,-,0.1–0.5 µg/mL
NNC(=O)c1ccncc1,H37Rv,MIC,-,-,resazurin,Rifampicin-resistant D94N,0.32 µM
C(=N\NOCC12CC3CC(CC(C3)C1)C2)/c1ccncc1,H37Rv,MIC,-,-,luminescence,-,29.3 µg/mL
CC(c1cccs1)N(C(=S)Nc1ccccc1)c1ccc(F)c(Cl)c1,-,zone,-,1000 µg/mL,visual reading,-,19.85 mm
CC(C)(CN)NC(C)(C)CO,H37Rv,MIC bound,-,-,BACTEC,-,>12.8 µg/mL
CC(=O)c1cncc(C2=CC(=O)c3ccccc3C2=O)n1,H37Rv,MIC90,-,-,resazurin,-,>6.25 µg/mL
Cc1ccc(Nc2nc(N)[nH]c(=O)c2N=O)cc1Cl,H37Rv,inhibition,-,12.5 µg/mL,BACTEC,-,-8%
CCOC1Oc2ccc(Cl)cc2C(=O)/C1=C/Nc1nc2ccccc2s1,H37Rv,MIC,-,-,-,-,50 µg/mL
COc1ncnc2c1cnn2Cc1cn(COC[C@@H](O)CO)nn1,H37Rv,EC50,-,-,BACTEC,-,>12.5 µg/mL
Nc1ncnc2c1Sc1nc(Cl)ccc1N2,H37Rv,inhibition,-,12.5 µg/mL,BACTEC,-,-3%
COc1nc2ccc(Br)cc2cc1C(c1ccccc1)C(O)(CCN1CCCC1)c1ccc2ccccc2c1,H37Rv,MIC90,-,-,-,-,46.19 µg/mL
C=C1C(=O)OC2[C@H]3O[C@]3(C)CC/C=C(/C)[C@H](O)C[C@@H]12,H37Rv,MIC,-,-,BACTEC,-,≥12.5 µg/mL
CCOC1Oc2ccc(C)cc2C(=O)/C1=C/Nc1nc2ccccc2s1,H37Rv,MIC,-,-,-,-,>100 µg/mL
Cc1c(NC(=S)Nc2ccc([N+](=O)[O-])cc2)c(=O)n(-c2ccccc2)n1C,H37Rv,MIC bound,-,-,resazurin,-,>6.25 µg/mL
O=C(N/N=C/CC12CC3CC(CC(C3)C1)C2)c1ccncc1,H37Rv,MIC,-,-,luminescence,-,0.05 µg/mL
COc1ccc2c3c1OC1C(C)(O)C(O)CC4C(C2)N(C)CCC341,H37Rv,MIC bound,-,-,BACTEC,-,>12.5 µg/mL
CC1=CC(=O)c2cc(C)ccc2C1=O,H37Rv,MIC90,-,-,resazurin,-,>6.25 µg/mL
Cc1c(C(N)=O)c(-c2ccccc2)c(-c2ccccc2)n1Nc1ccccc1,H37Rv,MIC bound,-,-,BACTEC,-,>12.5 µg/mL
CC(C)(C)c1ccc(COC(Cn2ccnc2)c2ccccc2)cc1,CIP103471,MIC,-,-,-,-,1 µg/mL
Cc1ccc2occ(/C=N/c3nc4c(Cl)cccc4s3)c(=O)c2c1,H37Rv,MIC,-,-,-,-,25 µg/mL
C[C@@H]1CO[C@@H]2C3=C(C(=O)C=CC3=O)[C@@H]3OC(=O)[C@H]4CC[C@H]5[C@H]1CC[C@]25[C@@H]43,H37Rv,MIC,-,-,BACTEC,-,≥12.5 µg/mL
CO[C@H]1/C=C/O[C@@]2(C)Oc3c(C)c(O)c4c(O)c(c(/C=N/N5CCN(C)CC5)c(O)c4c3C2=O)NC(=O)/C(C)=C\C=C\[C@H](C)[C@H](O)[C@@H](C)[C@@H](O)[C@@H](C)[C@H](OC(C)=O)[C@@H]1C,-,MIC,-,-,fluorescence,-,0.003 µM
CCOC(=O)C(NC(=O)c1cccc(Cl)c1)(N1CCN(c2cc3c(cc2F)c(=O)c(C(=O)O)cn3CC)CC1)C(F)(F)F,H37Rv,inhibition,-,6.25 µg/mL,resazurin,-,99%
Nc1sc(-c2ccccc2)cc1C(=O)O,H37Rv,MIC,-,-,resazurin,-,228 µM
C=C(C[C@@H]1C(=C)CC[C@@H]2[C@@]3(C)CCC[C@@]12C(=O)OC3)c1ccoc1,H37Ra,MIC,-,-,-,-,100 µg/mL
COc1ccc(OC)c2c1C(=O)C=CC2=O,H37Rv,MIC90,-,-,resazurin,-,>6.25 µg/mL
CC1=NN(c2cc(Cl)c(S(=O)(=O)O)cc2Cl)C(=O)C1N=Nc1ccc(S(=O)(=O)O)cc1,H37Rv,inhibition,-,12.5 µg/mL,BACTEC,-,-5%
CNC(=S)N(c1ccc(Cl)c(Cl)c1)C(C)C,-,zone,-,1000 µg/mL,visual reading,-,10.02 mm
CC(C)=CCC(OC(=O)CC(C)C)C1=CC(=O)c2c(O)ccc(O)c2C1=O,INH-r,MIC,-,-,-,-,>12.5 µg/mL
CC(C)CCOc1ccc(NC(=S)Nc2ccc(OCCC(C)C)cc2)cc1,H37Ra,MIC,-,-,-,-,2 µg/mL
Nc1ncnc2c1cnn2Cc1cn(COC[C@@H](O)CO)nn1,H37Rv,EC50,-,-,BACTEC,-,>12.5 µg/mL
CCC(C)N(C(=S)Nc1ccccc1)c1ccc(Cl)c(Cl)c1,-,zone,-,1000 µg/mL,visual reading,-,10.51 mm
CO[C@H]1/C=C/O[C@@]2(C)Oc3c(C)c(O)c4c(=O)c(c5oc6cc(N7CCN(CC(C)C)CC7)cc(=O)c6nc5c4c3=C2O)NC(=O)/C(C)=C\C=C\[C@H](C)[C@H](O)[C@@H](C)[C@@H](O)[C@@H](C)[C@H](OC(C)=O)[C@@H]1C,H37Rv,inhibition,inside macrophages,5 µg/mL,-,-,97.3%
OC[C@H](O)COCn1ncc2c(SCc3ccccc3)ncnc21,H37Rv,EC50,-,-,BACTEC,-,>12.5 µg/mL
CC(=O)c1ccc(C2=CC(=O)c3ccccc3C2=O)[nH]1,H37Rv,MIC90,-,-,resazurin,-,>6.25 µg/mL
COc1nc2ccc(Br)cc2cc1C(c1ccccc1)C(O)(CC[N+](C)(C)C)c1ccccc1,H37Rv,MIC90,-,-,-,-,25.77 µg/mL
Fc1ccc(N(C(=S)Nc2ccccc2)C2CCCCC2)cc1Cl,-,zone,-,1000 µg/mL,visual reading,-,11.15 mm
COc1c2ccoc2nc2c(OC)cccc12,H37Rv,MIC,-,-,broth dilution / resazurin,-,140 µM
CC(=O)N1c2ccccc2CC1C1=CC(=O)c2ccccc2C1=O,H37Rv,MIC90,-,-,resazurin,-,>6.25 µg/mL
O=C(N/N=C/C12CC3CC(C1)CC(c1ccccc1)(C3)C2)c1ccncc1,H37Rv,MIC,-,-,luminescence,-,0.06 µg/mL
COc1nc2ccc(Br)cc2cc1C(c1ccccc1)C(O)(CCN1CCN(C)CC1)c1ccccc1,H37Rv,MIC90,-,-,-,-,7.06 µg/mL
CNc1ncnc2c1cnn2Cc1cn(COC[C@@H](O)CO)nn1,H37Rv,inhibition,-,12.5 µg/mL,BACTEC,-,0%
Cc1ccc(C(Cn2ccnc2)OCc2ccc(C(C)(C)C)cc2)cc1,CIP103471,MIC,-,-,-,-,1 µg/mL
O=C(N/N=C/C1C2CC3CC(C2)CC1C3)c1ccncc1,-,MIC,-,-,luminescence,-,0.06 µg/mL
c1ccc(-c2ccc(COC(Cn3ccnc3)c3ccccc3)cc2)cc1,CIP103471,MIC,-,-,-,-,8 µg/mL
c1csc(-c2nnc(Cc3cccc4ccccc34)o2)c1,-,MIC,-,-,fluorescence,-,0.4 µM
CCOC(=O)c1c(NC(C)=O)sc2c1CCCC2,H37Rv,MIC,-,-,resazurin,-,>300 µM
COc1ccc(C2OC3=C(Nc4ccc([N+](=O)[O-])cc4N3)C2=O)cc1,H37Rv,MIC bound,-,-,BACTEC,-,>12.5 µg/mL
COc1nc2ccc(Br)cc2cc1C(c1ccccc1)C(O)(CCN(C)C)c1ccc(F)cc1,H37Rv,MIC90,-,-,-,-,8.3 µg/mL
CN[C@@H]1[C@H](O[C@H]2[C@H](O[C@H]3[C@H](O)[C@@H](O)[C@H](N=C(N)N)[C@@H](O)[C@@H]3N=C(N)N)O[C@@H](C)[C@]2(O)C=O)O[C@@H](CO)[C@H](O)[C@H]1O,H37Rv,EC50,-,-,-,-,0.2 µg/mL
CCSc1ncnc2c1cnn2COC[C@@H](O)CO,H37Rv,EC50,-,-,BACTEC,-,>12.5 µg/mL
O=C1C(=O)C(Cl)=C(Cl)C(Cl)=C1Cl,H37Rv,MIC bound,-,-,BACTEC,-,>6.25 µg/mL
COc1c2ccoc2cc2oc(=O)ccc12,H37Rv,MIC,-,-,broth dilution / resazurin,-,1160 µM
c1ccc(-c2nnc3nn4c(-c5ccccc5)cnnc4c3c2-c2ccccc2)cc1,H37Rv,inhibition,-,6.25 µg/mL,resazurin,-,37%
COc1c(O)c2c(c(C)c1C(=O)C=C(C)C)Oc1c(C=O)c(O)c(Cl)c(C)c1C(=O)O2,-,MIC,-,-,-,-,39.7 µg/mL
O=c1c(/C=N/c2nc3ccc(Cl)cc3s2)coc2ccc(Cl)cc12,H37Rv,MIC,-,-,-,-,10 µg/mL
N[C@H](C(=O)O)[C@H]1ON=C(Cl)[C@@H]1O,H37Rv,MIC bound,-,-,BACTEC,-,≤12.5 µg/mL
CCCCc1ccc(NC(=S)Nc2ccc(OCCC(C)C)cc2)cc1,H37Ra,MIC,-,-,-,-,0.5 µg/mL
Clc1ccc(C(Cn2ccnc2)OCc2ccc(-c3ccccc3)cc2)cc1,CIP103471,MIC,-,-,-,-,2 µg/mL
O=c1ccc2nc3ccc(O)cc3sc-2c1,H37Rv,inhibition,-,12.5 µg/mL,BACTEC,-,5%
CCOC(=O)c1cc(-c2ccccc2)sc1NC(C)=O,H37Rv,MIC,-,-,resazurin,-,>300 µM
CCc1ccc([C@H]2C[C@@H](C(F)(F)F)n3ncc(C(=O)NCc4ccc(OC)cc4)c3N2)cc1,H37Rv,fold resistance,-,-,fluorescence,MmpL3: Ser591Ile,>8
C/C=C(/C)C(=O)OC1CC(C)(C)CC2C3=CCC4C5(C)CC[C@H](OC(C)=O)C(C)(C)C5CC[C@@]4(C)[C@]3(C)CC[C@@]12C(=O)O,H37Rv,MIC,-,-,-,-,50 µg/mL
COc1nc2ccc(Br)cc2cc1C(c1ccccc1)C(O)(CCN(C)C)c1ccc2c3c(cccc13)CC2,H37Rv,MIC90,-,-,-,-,58.16 µg/mL
c1coc(-c2nnc(SCc3cccc4ccccc34)o2)c1,-,MIC,-,-,fluorescence,-,3.3 µM
CCOC(=O)c1c(NC(C)=O)sc2c1CCN(C(=O)OC(C)(C)C)C2,H37Rv,MIC,-,-,resazurin,-,>200 µM
C(CON/N=C/c1ccncc1)=C1C2CC3CC(C2)CC1C3,H37Rv,MIC,-,-,luminescence,-,>100 µg/mL
CCOc1nnc(NS(=O)(=O)c2ccc(N)cc2)o1,-,MIC,-,-,fluorescence,-,6.4 µM
Cc1ccc2cccc(CC(=O)NN)c2c1,H37Rv,inhibition,-,12.5 µg/mL,BACTEC,-,-2%
CC(c1cccs1)N(C(=S)Nc1ccccc1)c1ccc(Cl)c(Cl)c1,-,MIC,-,-,visual reading,-,25 µg/mL
CSc1ncnc2c1cnn2Cc1cn(COC[C@@H](O)CO)nn1,H37Rv,EC50,-,-,BACTEC,-,>12.5 µg/mL
O=C(C1COc2ccccc2O1)N1CCN(Cc2nc(-c3ccsc3)no2)CC1,-,inhibition,-,20 µM,fluorescence,-,4%
OC[C@@H](O)COCn1nncc1Cn1ncc2c(Sc3ccccc3)ncnc21,H37Rv,inhibition,-,12.5 µg/mL,BACTEC,-,0%
COc1c(N2CCNC(C)C2)c(F)cc2c(=O)c(C(=O)O)cn(C3CC3)c12,H37Rv,MIC,-,-,-,-,0.05 µg/mL
CCC(C)N(C(=S)NC)c1ccc(Cl)c(Cl)c1,-,MIC,-,-,visual reading,-,>400 µg/mL
c1csc(-c2noc(-c3ccc4c(c3)OCO4)n2)c1,-,inhibition,-,20 µM,fluorescence,-,10%
Cc1ccc(C(Cn2ccnc2)OCc2ccc(-c3ccccc3)cc2)cc1,CIP103471,MIC,-,-,-,-,2 µg/mL
CCOC(=O)c1c(NC(=O)c2c(F)c(F)c(F)c(F)c2F)sc2c1CCN(CC)C2,H37Rv,EC50,-,-,low oxygen,-,0.27 µM
COc1cc(C2C(C#N)=C(C)Nc3nc(N)nc(N)c32)cc(OC)c1OC,H37Rv,inhibition,-,6.25 µg/mL,resazurin,-,8%
COc1ccc(C=O)cc1,H37Rv,MIC,-,-,resazurin,-,8.16 µg/mL
COc1cc2c(c(OC)c1CCC(=O)O)C=CC(C)(C)O2,H37Rv,MIC,-,-,broth dilution / resazurin,-,210 µM
O=S1c2ccccc2S(=O)c2ccccc21,H37Rv,MIC bound,-,-,BACTEC,-,>12.5 µg/mL
Cc1ccc([N+](=O)[O-])cc1NC(=O)Nc1ccc(Cl)c(Cl)c1,-,MIC90,-,-,broth dilution / turbidity,-,0.4 µg/mL
O=CN(O)CC(=O)O,H37Rv,inhibition,-,12.5 µg/mL,BACTEC,-,-18%
Clc1ccc(C(Cn2ccnc2)OC/C=C/c2ccccc2)cc1,CIP103471,MIC,-,-,-,-,8 µg/mL

Zone: diameter of growth inhibition. Conditions beyond the fields shown may differ between rows. Blank or dashed fields: not listed here. Inhibition is in % at the dose shown (toxicity tests: loss of growth or viability). Two numbers with a dash give a range or band. ECn: concentration that inhibits the pathogen or its effect by n%. A number after MIC or MFC names an inhibition level or a share of isolates. Fold resistance: result on the changed form divided by that on wild type.